In ChEMBL document CHEMBL2176915, “Phenyltetrahydroisoquinoline-pyridinaldoxime conjugates as efficient uncharged reactivators for the dephosphylation of inhibited human acetylcholinesterase” (2012):

Biological target: Acetylcholinesterase (Homo sapiens, UniProt P22303)
Assay: Binding affinity to tabun-human AChE complex
Conditions: read-out: Kd(app)

Row | Compound | Kd
1 | COc1cc2c(cc1OC)C(c1ccccc1)N(CCOCCCc1ccc(O)c(/C=N/O)n1)CC2 (configuration not stated) | 4 µM
2 | COc1cc2c(cc1OC)C(c1ccccc1)N(CCCc1ccc(O)c(/C=N/O)n1)CC2 (configuration not stated) | 7 µM
